Pooled drug test results. Numbers come from NIAID ChemDB, via PubChem.

Shared fields: growth or infection tests; agent: Varicella zoster virus; cell line: HEL; endpoint: EC50

An empty or dashed field is not shown. ECn is the concentration giving n% inhibition of infection, replication or growth. Conditions beyond the fields shown may differ between rows.

compound | strain | read by | value
Nc1ccn(C[C@@H](CO)OCP(=O)(O)O)c(=O)n1 | BVaraU-resistant | plaque count | 0.032 µg/mL
O=c1[nH]c(=O)n([C@@H]2O[C@H](CO)[C@@H](O)[C@@H]2F)cc1I | - | plaque count | 0.212 µM
O=c1[nH]c(=O)n([C@H]2C[C@H](O)[C@@H](CO)O2)cc1C1CCCCC1 | OKA YS | plaque count | >160 µM
Nc1nc2c(ncn2CCOCP(=O)(O)O)c(=O)[nH]1 | 4 strains | cytopathic effect | 0.05 µg/mL
Nc1ncnc2c1ncn2[C@@H]1O[C@H](CO)[C@@H](O)[C@@H]1O | 13 isolates | plaque count | 21.6 µM
Cc1cn([C@@H]2O[C@H](CO)[C@@H](O)[C@@H]2O)c(=O)[nH]c1=O | YS | plaque count | 0.82 µM
Nc1ncnc2c1ncn2CCOCP(=O)(O)O | OKA (WILD TYPE) | cytopathic effect | 17.8 µM
CC#Cc1cn([C@@H]2O[C@H](CO)[C@@H](O)[C@@H]2O)c(=O)[nH]c1=O | - | plaque count | 1.63 µM
Nc1nc2c(ncn2[C@H]2C=C[C@@H](CO)CC2)c(=O)[nH]1 | OKA (TK+) | plaque count | 1.9 µg/mL
O=c1[nH]c(=O)n([C@@H]2O[C@H](CO)[C@@H](O)[C@@H]2O)cc1/C=C/Br | OKA | plaque count | 0.000049 µg/mL
Nc1nc(N)c2ncn(CCOCP(=O)(O)O)c2n1 | YS | plaque count | 4.5 µM
Nc1ncnc2c1ncn2[C@@H]1O[C@H](CO)[C@H]1CO | OKA (TK+) | plaque count | 3.6 µM
Nc1nc(Cl)c2ncn(C[C@H]3CC[C@@H](CO)C3)c2n1 | OKA | plaque count | >20 µg/mL
Nc1nc(OCCOCP(=O)(O)O)cc(OCCOCP(=O)(O)O)n1 | OKA | cytopathic effect | 50 µg/mL
O=c1ccn(CC(CO)OCP(=O)(O)O)c(=O)[nH]1 | 4 strains | cytopathic effect | 300 µg/mL
O=c1[nH]c(=O)n([C@H]2C[C@H](O)[C@@H](CO)S2)cc1C1CCCC1 | OKA YS | plaque count | 0.48 µM
Nc1ncnc2c1ncn2[C@@H]1C=C(CO)[C@@H](O)[C@H]1O | YS | cytopathic effect | 2.4 µg/mL
Cc1cn([C@H]2C[C@H](O)[C@@H](CO)O2)c(=O)[nH]c1=O | OKA YS | plaque count | >250 µM
Nc1nc(N)c2ncn(CCOCP(=O)(O)O)c2n1 | PCV-resistant/A | plaque count | 6.8 µg/mL
C=Cc1cn([C@H]2C[C@H](O)[C@@H](CO)O2)c(=O)[nH]c1=O | - | plaque count | 1.18 µM
Nc1nc2c(ncn2COC(CO)CO)c(=O)[nH]1 | YS | plaque count | 3.5 µM
Nc1ncnc2c1ncn2C[C@@H](CO)OCP(=O)(O)O | 4 strains | cytopathic effect | 0.02 µg/mL
Nc1ncnc2c1ncn2C[C@@H](CO)OCP(=O)(O)O | BVDU-resistant | plaque count | 0.026 µg/mL
Cc1cn([C@@H]2O[C@H](CO)C[C@@H]2O)c(=O)[nH]c1=O | - | plaque count | 32 µM
Nc1cc(OCCOCP(=O)(O)O)nc(N)n1 | YS | plaque count | 3.9 µM
Nc1ncnc2c1ncn2C[C@H]1COP(=O)(O)CO1 | 4 strains | cytopathic effect | 0.03 µg/mL
Cc1cn([C@@H]2O[C@H](CO)[C@@H](O)[C@@H]2O)c(=O)[nH]c1=O | 13 isolates | plaque count | 0.32 µM
O=c1[nH]cnc2c1ncn2CCOCP(=O)(O)O | 4 strains | cytopathic effect | >400 µg/mL
Nc1nc2c(ncn2[C@@H]2C=C[C@H](CO)CC2)c(=O)[nH]1 | YS (TK+) | plaque count | 0.5 µg/mL
C[C@@H]1CC[C@H]2[C@@H](C)C(=O)O[C@@H]3OC4(C)CC[C@@H]1[C@]32OO4 | YS | plaque count | >50 µg/mL
O=c1[nH]c(=O)n([C@H]2C[C@H](O)[C@@H](CO)S2)cc1C1CC1 | OKA YS | plaque count | 0.09 µM
Nc1nc(N)c2nnn(C[C@H]3CC[C@@H](CO)C3)c2n1 | 07/1 (TK-) | plaque count | >50 µg/mL

Repeating the final 4 entries:

compound	strain	read by	value
Nc1nc2c(ncn2[C@@H]2C=C[C@H](CO)CC2)c(=O)[nH]1	YS (TK+)	plaque count	0.5 µg/mL
C[C@@H]1CC[C@H]2[C@@H](C)C(=O)O[C@@H]3OC4(C)CC[C@@H]1[C@]32OO4	YS	plaque count	>50 µg/mL
O=c1[nH]c(=O)n([C@H]2C[C@H](O)[C@@H](CO)S2)cc1C1CC1	OKA YS	plaque count	0.09 µM
Nc1nc(N)c2nnn(C[C@H]3CC[C@@H](CO)C3)c2n1	07/1 (TK-)	plaque count	>50 µg/mL